Anti-infective test results gathered from many reports (values: NIAID ChemDB through PubChem).

All rows: target-level tests; agent: HIV-1; target: Integrase

ICn is the concentration giving n% inhibition.

compound | mutations | read by | read-out | value
O=C(/C=C/c1ccc(O)c(O)c1)OCCc1ccc(NC(=S)SCCO)cc1 | C56S | 3′ processing | fold resistance | 7.67
Cn1ccc(CN2CCn3c(nc(C(=O)NCc4ccc(F)cc4)c(O)c3=O)C23CCOCC3)n1 | - | ELISA | IC50 | <10 µM
O=C(O)/C(O)=C/C(=O)N(Cc1ccc(F)cc1)Cc1ccco1 | - | strand transfer | IC50 | <70 µM
O=C(/C=C/c1ccc(O)c(O)c1)Oc1ccc2c(N=C=S)cccc2c1 | C56S | 3′ processing | fold resistance | 6.67
Cc1cc(CNC(=O)c2nc3n(c(=O)c2O)CC2(N4CCOCC4)CCC3(NC(=O)C(=O)N(C)C)CC2)ccc1F | - | radiometric | Ki | 0.000003 µM
COc1ccc(C(c2ccc(OC)cc2)N(C)C(=O)/C=C(\O)C(=O)O)cc1 | - | strand transfer | IC50 | <70 µM
Cc1cccc(C)c1-c1cn2ccn(Cc3cccc(Cl)c3)c(=O)c2c(O)c1=O | - | ELISA | IC50 | 0.01–0.1 µM
O=C(NCc1ccc(F)cc1N1CCCCS1(=O)=O)c1nc2n(c(=O)c1O)CCCOC21CCN(C(=O)OCc2ccccc2)CC1 | - | binding / radiometric | Ki | 0.003–0.05 µM
CN1CCn2c(nc(C(=O)NCc3ccc(F)cc3)c(O)c2=O)C(N(C)C(=O)C(=O)N2CCOCC2)C1 | - | ELISA | IC50 | <10 µM
O=C(/C=C/c1ccc(O)c(O)c1)OCCc1ccccc1 | C56S | 3′ processing | fold resistance | 7
COc1ccc(C(=O)C2=NS(=O)(=O)c3cc(C)c(Cl)cc3S2)cc1 | INTG-C65S | strand transfer | fold resistance | 0.9
O=C1Cn2c(nc(C(=O)NCc3ccc(F)cc3)c(O)c2=O)CN1 | - | ELISA | IC50 | <10 µM
Cc1ncnn1-c1cc(F)ccc1CNC(=O)c1nc2n(c(=O)c1O)CCOCC21CCN(S(=O)(=O)N(C)C)CC1 | - | binding / radiometric | Ki | 0.003–0.05 µM
O=C(/C=C/c1ccc(O)c(O)c1)Oc1ccc2cccc(N=C=S)c2c1 | C65S | 3′ processing | fold resistance | 3
CC(O)c1cc(=O)c(O)c2n1CCN(Cc1ccc(Cl)c(Cl)c1)C2=O | - | ELISA | IC50 | 0.01–0.1 µM
Cc1cc2c(cc1Cl)SC(C(=O)c1ccc(Br)cc1)=NS2(=O)=O | INTG-C65S | 3′ processing | fold resistance | 2.17
O=C(Nc1cn2ccn(Cc3cccc(Cl)c3)c(=O)c2c(O)c1=O)c1ccncc1 | - | ELISA | IC50 | <0.01 µM
CC(=O)OCC12CCC(NC(=O)C(=O)N(C)C)(CC1)c1nc(C(=O)NCc3ccc(F)cc3)c(O)c(=O)n1C2 | - | radiometric | Ki | 0.0000024 µM
CN(C)C(=O)C(=O)N(C)C1CN(Cc2ccccc2)CCn2c1nc(C(=O)NCc1ccc(F)cc1)c(O)c2=O | - | ELISA | IC50 | <10 µM
Cc1nnc(C(=O)N2CCC3(C2)OCCn2c3nc(C(=O)NCc3ccc(F)cc3-n3ncnc3C)c(O)c2=O)o1 | - | binding / radiometric | Ki | 0.003–0.05 µM
O=C(Cn1ccn2ccc(=O)c(O)c2c1=O)Nc1ccccc1 | - | ELISA | IC50 | 0.1–1 µM
Cc1cc(CNC(=O)c2nc3n(c(=O)c2O)CC2(N)CCC3(NC(=O)C(=O)N(C)C)CC2)ccc1F | - | radiometric | Ki | 0.0000038 µM
CS(=O)(=O)N1CCC2(CC1)OCCCn1c2nc(C(=O)NCc2ccc(F)cc2)c(O)c1=O | - | binding / radiometric | Ki | 0.001–0.003 µM
Cc1c(F)cc(Br)c(CNC(=O)c2nc3n(c(=O)c2O)CC2(F)CCC3(N(C)C(=O)C(=O)N(C)C)CC2)c1Br | - | radiometric | Ki | 0.0000052 µM
O=C(Cc1ccccc1)Nc1cn2ccn(Cc3cccc(Cl)c3)c(=O)c2c(O)c1=O | - | ELISA | IC50 | <0.01 µM
Cc1cc2c(cc1Cl)SC(C(=O)c1ccccc1)=NS2(=O)=O | INTG-C65S | strand transfer | fold resistance | 7.5
COc1ccc(CNC(=O)/C=C(\O)C(=O)O)c(OC)c1 | - | strand transfer | IC50 | <70 µM
Cc1cc2c(cc1Cl)SC(C(=O)c1cccc([N+](=O)[O-])c1)=NS2(=O)=O | INTG-C65S | 3′ processing | fold resistance | 1.67
O=c1c(-c2ccccn2)cn2ccn(Cc3ccc(F)cc3)c(=O)c2c1O | - | ELISA | IC50 | 0.01–0.1 µM
CC(=O)N(C)C12CCC(F)(CC1)Cn1c2nc(C(=O)NCc2ccc(F)c(C)c2)c(O)c1=O | - | radiometric | Ki | 0.0000033 µM
Cc1cc2c(cc1Cl)SC(C(=O)c1ccc3ccccc3c1)=NS2(=O)=O | INTG-C65S | 3′ processing | fold resistance | 1.07

Again, the opening 3 rows:

compound	mutations	read by	read-out	value
O=C(/C=C/c1ccc(O)c(O)c1)OCCc1ccc(NC(=S)SCCO)cc1	C56S	3′ processing	fold resistance	7.67
Cn1ccc(CN2CCn3c(nc(C(=O)NCc4ccc(F)cc4)c(O)c3=O)C23CCOCC3)n1	-	ELISA	IC50	<10 µM
O=C(O)/C(O)=C/C(=O)N(Cc1ccc(F)cc1)Cc1ccco1	-	strand transfer	IC50	<70 µM

Blank or dashed fields: not listed here. Neighbouring rows are from separate reports. Two numbers with a dash give a range or band. Fold resistance: result on the changed form divided by that on wild type.